A mixed list of measured activities; the numbers were collected in NIAID ChemDB.

ECn: concentration that inhibits the pathogen or its effect by n%. Lines come from different laboratories, so protocols vary. ICn: concentration for n% inhibition. Percent inhibition refers to the dose given; in toxicity tests it is the harm to the cells. Blank or dashed fields: not listed here.

| SMILES | test | agent | strain | cell line | protein | read-out | dose | result |
|---|---|---|---|---|---|---|---|---|
| Clc1ccc2c(c1)C=C(c1ccccc1)CO2 | culture | Poliovirus | IA (TYPE 2) | HEP-2 | - | inhibition | 10 µM | 100% |
| COc1ccc(C(NC(=O)c2ccc3c(c2)nc(-c2ccc(OCc4ccccc4)cc2)n3C2CCCCC2)C(=O)O)cc1OC | target | Poliovirus | - | - | RNA-dependent RNA polymerase | IC50 | - | >25 µM |
| CCCCCCCCCCCCC/C=C/[C@@H](O)[C@H](CO[C@@H]1O[C@H](CO)[C@H](O)[C@H](OS(=O)(=O)O)[C@H]1O)NC(=O)CCCCCCCCCCCCCCCCCCCCCCC | target | Influenza A virus | H3N8 A/mallard/Alberta/23/89 | - | Sialidase | inhibition | 200 µM | 48.5% |
| O=C(N[C@@H](Cc1c[nH]c2ccc(O)cc12)C(=O)O)c1ccc2c(c1)nc(-c1ccc(=O)[nH]c1)n2C1CCCCC1 | target | Poliovirus | - | - | RNA-dependent RNA polymerase | IC50 | - | >25 µM |
| Nc1ncnc2c1ncn2[C@@H]1C=C(CO)[C@@H](O)[C@H]1O | culture | Variola virus | 7124 | VERO | - | EC50 | - | 0.03 µg/mL |
| CCCCCCCCCCCCCCCCCC(=O)OC[C@@H](COP(=O)(O)OCCNCCO[C@@]1(C(=O)O)O[C@@H]([C@H](O)[C@H](O)CO)[C@H](NC(C)=O)[C@@H](O)[C@H]1F)OC(=O)CCCCCCCCCCCCCCCCC | target | Influenza A virus | H1N1 A/swine/Hokkaido/2/81 | - | Sialidase | IC50 | - | 62.5 µM |
| Clc1ccc2c(c1)C=C(c1ccc(Br)cc1)CO2 | culture | Poliovirus | IB (TYPE 2) | HEP-2 | - | EC50 | - | >10 µM |
| COc1ccc(C(NC(=O)c2ccc3c(c2)nc(-c2ccc(O)c(C(=O)O)c2)n3C2CCCCC2)C(=O)O)cc1OC | target | Poliovirus | - | - | RNA-dependent RNA polymerase | IC50 | - | >25 µM |
| Clc1ccc(C2COc3ccccc3C2)cc1 | culture | Poliovirus | TYPE 2 | HEP-2 | - | inhibition | 10 µM | 0% |
| N=c1c2ncn([C@@H]3O[C@H](CO)[C@@H](O)[C@H]3O)c2ncn1OCc1cc(F)cc(F)c1 | culture | Variola virus | Isolate Brazil Garcia | VERO | - | EC50 | - | 0.14 µg/mL |
| Clc1ccc(C2=Cc3ccccc3OC2)cc1 | culture | Poliovirus | SABIN (TYPE 2) | HEP-2 | - | EC50 | - | >10 µM |
| Nc1ccn(C[C@H]2COP(=O)(O)CO2)c(=O)n1 | culture | Variola virus | Isolate Iran 2602 | VERO | - | EC50 | - | 7 µg/mL |
| Clc1ccc(C2COc3ccc(Cl)cc3C2)cc1 | culture | Poliovirus | SABIN (TYPE 2) | HEP-2 | - | EC50 | - | >10 µM |
| O=C(O)CN(CCN(CC(=O)O)CC(=O)Nc1ccc2[nH]cc(C[C@H](NC(=O)c3ccc4c(c3)nc(-c3ccoc3)n4C3CCCCC3)C(=O)O)c2c1)CC(=O)O | target | Poliovirus | - | - | RNA-dependent RNA polymerase | IC50 | - | >25 µM |
| CCCCCCCCCCCCCCCCCC(=O)OC[C@@H](COP(=O)(O)OCCNCCO[C@@]1(C(=O)O)O[C@@H]([C@H](O)[C@H](O)CO)[C@H](NC(C)=O)[C@@H](O)[C@H]1F)OC(=O)CCCCCCCCCCCCCCCCC | target | Influenza A virus | H6N1 A/DUCK/HK/13/76 | - | Sialidase | IC50 | - | 150 µM |
| O=C(O)c1cccc(CNC2CCC(NC(=O)c3ccc4c(c3)nc(-c3ccoc3)n4C3CCCCC3)CC2)c1 | target | Poliovirus | - | - | RNA-dependent RNA polymerase | IC50 | - | >25 µM |
| Nc1ccn([C@@H]2C=C(CO)[C@@H](O)[C@H]2O)c(=O)n1 | culture | Variola virus | BSH | VERO | - | EC50 | - | >100 µg/mL |
| Nc1ccn(C[C@@H](CO)OCP(=O)(O)O)c(=O)n1 | culture | Variola virus | Isolate Higgins | VERO | - | EC50 | - | 14 µg/mL |
| O=C(N[C@@H](Cc1ccc(NS(=O)(=O)C(F)(F)F)cc1)C(=O)O)c1ccc2c(c1)nc(-c1ccoc1)n2C1CCCCC1 | target | Poliovirus | - | - | RNA-dependent RNA polymerase | IC50 | - | >25 µM |

2 of the rows above, restated:

SMILES,test,agent,strain,cell line,protein,read-out,dose,result
Clc1ccc2c(c1)C=C(c1ccc(Br)cc1)CO2,culture,Poliovirus,IB (TYPE 2),HEP-2,-,EC50,-,>10 µM
O=C(N[C@@H](Cc1c[nH]c2ccc(O)cc12)C(=O)O)c1ccc2c(c1)nc(-c1ccc(=O)[nH]c1)n2C1CCCCC1,target,Poliovirus,-,-,RNA-dependent RNA polymerase,IC50,-,>25 µM